According to patent US7982057B2, “Compound of stemphones and production thereof” (The Kitasato Institute, priority 2006, dated 2011):

What follows are molecules tested on Jurkat cells (assay: Cytotoxicity on Jurkat cells by MTT method). Settings: fold reduction of toxicity.
Format: cell-based
Procedure: Method for Evaluation of Cytotoxicity
Evaluation of cytotoxicity on Jurkat cells were performed by MTT method (Mosmaan, et al. J. Immunol. Methods, 65: 55-63, 1983). Cultured liquid of Jurkat cells were suspended in RPMI-1640 medium (Iwaki & Co., Ltd., Japan) to give suspension with 4×10^5 cells/ml, and the suspension 0.05 ml was seeded in each well of 96 well microplate (Corning Corp.). Subsequently, stemphone D substance, stemphone E substance, stemphone E1 substance, stemphone E2 substance, stemphone E3 substance or stemphone F substance (0.05 ml, 2% methanol/PRMI-1640 medium) was added and incubated at 37° C. for 48 hours in 5% carbon dioxide gas incubator. Then MTT reagent (SIGMA Inc.) dissolved in PBS to give concentration 5.5 mg/ml, 0.01 ml was added and reacted at 37° C. for 4 hours. After the reaction was performed, cell-lysing solution (40%, N-dimethylformamide (Kanto Chemical Co., Inc., Japan), 20% sodiumdodecyl sulfate (Wako Pure Chemical Industries, Ltd., Japan) 2% acetic acid (Kanto Chemical Co., Inc., Japan), 0.03% hydrochloric acid (Kanto Chemical Co., Inc., Japan) in purified water) 0.09 ml was added, and stirred at room temperature for 2 hours, then absorption at 550 nm was measured by using ELx 808 (BIO-TEK Instruments Inc.). As compared with stemphone C substance previously reported by the present inventor (ratio: 1.0), about 4-fold to 60-fold reduction of toxicity were confirmed.

`C/C=C(\C)C(OC(C)=O)C(C)C1=CC(=O)C2=C(OC3(C)CCC4OC(C(C)(C)O)CC(O)C4(C)C3C2)C1=O` (stereo not drawn) [stemphone D substance] was tested. Which “Ratio (IC50 compared with stemphone C substance, ratio 1.0)” value (from here on “Ratio”) did it give?
Its value is 4.2.

With `C/C=C(\C)C(OC(C)=O)C(C)c1cc(OC)c2c(c1O)OC1(C)CCC3OC(C(C)(C)O)CC(O)C3(C)C1C2O` (stereo not drawn) [stemphone E1 substance] as the molecule, how does the “Ratio” value read?
Its value is 60.9.

With `C/C=C(\C)C(OC(C)=O)C(C)c1cc(O)c2c(c1O)OC1(C)CCC3OC(C(C)(C)O)CC(O)C3(C)C1=C2` (stereo not drawn) [stemphone E2 substance] as the molecule, how does the “Ratio” value read?
Its value is 10.3.

For `C/C=C(\C)C(OC(C)=O)C(C)C1=CC(=O)C2=C(OC3(C)CCC4OC(C(C)(C)O)CC(O)C4(C)C3=C2)C1=O` (stereo not drawn) [stemphone E3 substance], which “Ratio” value is on record?
The value was 6.0.

For `C/C=C(\C)C(OC(C)=O)C(C)c1cc(O)c2c(c1O)OC1(C)CCC3OC(C(C)(C)O)CC(O)C3(C)C1C2O` (stereo not drawn) [stemphone E substance], which “Ratio” value is on record?
The value was 8.5.

For `C/C=C(\C)C(OC(C)=O)C(C)C1=CC(=O)C2=C(OC3(C)CCC4OC(C(C)(C)O)CC(O)C4(C)C3C2O)C1(O)CC(C)=O` (stereo not drawn) [stemphone F substance], which “Ratio” value is on record?
The value was 6.3.
